# Kdimer by position in the HIV-1 leader RNA

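Mutant RNA libraries with 1G, 2G or 3G starts, with or without cap, were folded at 37 °C for 30 min. Monomer and dimer bands were cut from native gels after folding in high salt (300 mM KCl, 5 mM MgCl2) or low salt (40 mM KCl, 0.1 mM MgCl2). Kdimer compares mutation frequencies in monomer and dimer, corrected for sequencing errors.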

Sequence of the HIV-1 NL4-3 5' RNA, positions 1 to 437, as numbered in the source:
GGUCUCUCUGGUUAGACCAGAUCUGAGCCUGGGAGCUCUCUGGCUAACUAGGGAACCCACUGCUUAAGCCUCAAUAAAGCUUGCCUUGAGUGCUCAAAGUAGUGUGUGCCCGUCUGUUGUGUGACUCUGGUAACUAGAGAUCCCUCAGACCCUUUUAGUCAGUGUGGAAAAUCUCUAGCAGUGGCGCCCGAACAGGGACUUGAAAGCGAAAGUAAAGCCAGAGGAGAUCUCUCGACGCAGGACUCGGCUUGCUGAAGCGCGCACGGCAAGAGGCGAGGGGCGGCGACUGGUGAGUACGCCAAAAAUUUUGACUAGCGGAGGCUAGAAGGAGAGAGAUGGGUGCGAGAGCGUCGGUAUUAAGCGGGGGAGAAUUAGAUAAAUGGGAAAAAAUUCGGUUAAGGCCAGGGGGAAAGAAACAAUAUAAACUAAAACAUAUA

Scale: median log2 Kdimer over the changes at a position; positive = changes inhibit dimerization, negative = changes enhance it.
One numbering serves 1G, 2G and 3G.
A position is written with its base.

With G342 (domain AUG) the assay gave 1G capped low-salt -0.09; 2G capped high-salt 0.01; 2G uncapped high-salt 0.10. C343 (domain AUG) read 1G capped low-salt -0.11; 2G capped high-salt -0.09; 2G uncapped high-salt 0.24. For G344 (domain AUG) the result was 1G capped low-salt -0.61; 2G capped high-salt -0.15; 2G uncapped high-salt -0.15. A345 gave 1G capped low-salt 0.34; 2G capped high-salt 0.16; 2G uncapped high-salt 0.16. G346 gave 1G capped low-salt 0.08; 2G capped high-salt -0.13; 2G uncapped high-salt 0.03.

With A347 the assay gave 1G capped low-salt 0.55; 2G capped high-salt 0.37; 2G uncapped high-salt 0.50. G348 gave 1G capped low-salt -0.46; 2G capped high-salt -0.31; 2G uncapped high-salt -0.37. For C349 the result was 1G capped low-salt -0.20; 2G capped high-salt -0.25; 2G uncapped high-salt -0.32. G350 read 1G capped low-salt 0.07; 2G capped high-salt -0.05; 2G uncapped high-salt -0.20. With U351 the assay gave 1G capped low-salt 0.10; 2G capped high-salt 0.10; 2G uncapped high-salt 0.09.

For C352 the result was 1G capped low-salt -0.09; 2G capped high-salt 0.21; 2G uncapped high-salt 0.20. For G353 the result was 1G capped low-salt -0.12; 2G capped high-salt -0.02; 2G uncapped high-salt 0.03. With G354 the assay gave 1G capped low-salt -0.76; 2G capped high-salt -0.14; 2G uncapped high-salt -0.12. U355 read 1G capped low-salt 0.18; 2G capped high-salt 0.12; 2G uncapped high-salt 0.17. With A356 the assay gave 1G capped low-salt -0.06; 2G capped high-salt 0.13; 2G uncapped high-salt -0.03.

U357 gave 1G capped low-salt 0.12; 2G capped high-salt 0.07; 2G uncapped high-salt 0.01. With U358 the assay gave 1G capped low-salt -0.06; 2G capped high-salt 0.03; 2G uncapped high-salt -0.01. With A359 the assay gave 1G capped low-salt -0.16; 2G capped high-salt 0.10; 2G uncapped high-salt -0.02. For A360 the result was 1G capped low-salt -0.39; 2G capped high-salt 0.00; 2G uncapped high-salt 0.00. With G361 the assay gave 1G capped low-salt -0.21; 2G capped high-salt 0.02; 2G uncapped high-salt 0.10.

C362 gave 1G capped low-salt -0.08; 2G capped high-salt 0.25; 2G uncapped high-salt 0.21. For G363 the result was 1G capped low-salt 0.07; 2G capped high-salt 0.11; 2G uncapped high-salt 0.21. With G364 the assay gave 1G capped low-salt -0.28; 2G capped high-salt -0.16; 2G uncapped high-salt 0.04. G365 gave 1G capped low-salt -0.09; 2G capped high-salt -0.02; 2G uncapped high-salt 0.03. G366 read 1G capped low-salt 0.16; 2G capped high-salt 0.12; 2G uncapped high-salt 0.05.

Extract of 3 entries:

C362 gave 1G capped low-salt -0.08; 2G capped high-salt 0.25; 2G uncapped high-salt 0.21.
C352 gave 1G capped low-salt -0.09; 2G capped high-salt 0.21; 2G uncapped high-salt 0.20.
G366 gave 1G capped low-salt 0.16; 2G capped high-salt 0.12; 2G uncapped high-salt 0.05.

Values reported by Ye et al. 2022 (doi:10.1038/s41594-022-00746-2).